Test system: His-CalR (Vibrio parahaemolyticus RIMD 2210633)
Assay: EMSA
Conditions: salmon sperm DNA competitor, dose dependent; 10 mM Tris-HCl pH 7.5, 50 mM NaCl, 1 mM MgCl2, 0.5 mM EDTA, 0.5 mM DTT; room temperature, 20 min (EMSA) or 30 min (footprinting); recombinant protein; residues 1-319; protein details: 6xHis (pET28a, BamHI/HindIII); probe letters rebuilt from the primers and the genome

**Q.** Does “CGAAATCAGCGATATTGTTGTTTGCGCCTGCATCGCCTAGATACGTGTCATTGTCACTTGTGCTCATTTTTATTCCCTCTGGCTTATTTATTGAATAGACCTTTTATTCCACGTCTGATGAGATTCGTTCCAGACATGAGAAGTCTAATAGCCAAGTGGATAAGAATGAGTTTGAATATGGGATGATATTTCTAACTGACCTTTTAATTATAAATATAAAACTTAGTACTTTATCTATTGTTTTCTTTTAATTACATGCAGTTATTCCTAGTACTAGAGGTTTCTTTTTGCCCAACTTGTGGCTTGCGTCCTA (double strand) [mfpABC promoter EMSA fragment]” bind?
**A.** Result: binds
